In patent publication US8349839B2, “Inhibitors of HIV replication” (Boehringer Ingelheim International GmbH, priority 2009, dated 2013):

How the values were obtained:
[1] = biological target: HIV reverse transcriptase (Human immunodeficiency virus type 1 group M subtype B, UniProt P04585); experiment: HIV Reverse Transcriptase Assay (IC50); settings: assay of Example 67; 1 mM of ATP added to the reaction mixture
Experimental: (§1) Diluted solutions of stock solutions of compounds of Formula I in DMSO are prepared in assay buffer in Eppendorf tubes 16 h prior to their use in the biological assay, using a minimal supplementary volume of 75 μL of assay buffer in addition to the volume required in the assay. The samples are vortexed for 10 min at RT and incubated for 16 h at 4° C. The equilibrated solutions are centrifuged at 16 000 g for 5 min in a centrifuge equipped with an internal chiller, which is pre-equilibrated at 4° C., and the supernatant is collected. The portion of supernatant required for the serial dilutions in the biological assay is transferred to the compound dilution plate and a 75 μL portion of the remaining supernatant is transferred to a 1.4 mL tube (Micronic). A 25 μL volume of DMSO is promptly added and the sample is submitted for concentration determination by HPLC, along with the stock solution of the compound in DMSO as a standard for concentration determination analysis.
HIV Reverse Transcriptase Assay (IC50)
The assay used to measure inhibition of HIV reverse transcriptase is as described in WO 2006/034583, pages 52-53, incorporated herein by reference, except that 1 mM of ATP was added to the reaction mixture.

[2] = tested on: HIV-1 replication in C8166 LTRluc cells; experiment: C8166 HIV-1 Luciferase Assay (EC50); format: cell-based; settings: assay of Example 68; C8166 LTRluc cells infected with HIV-1 at moi 0.005, 3 days
Experimental: as §1
C8166 HIV-1 Luciferase Assay (EC50) […]
50 μL Steady Glo (luciferase substrate T1/2=5 hours Promega catalogue # E2520) is added to each well of the 96 well plate. The relative light units (RLU) of luciferase are determined using a luminescence plate reader. The calculated % inhibition values are used to determine EC50, slope factor (n) and maximum inhibition (Imax).

CCCCCn1c(=O)nc(-c2ccccc2)c2oc3ccc(-c4ccc(CN(C)C)cc4)cc3c21
IC50 [1]: 27 nM
EC50 [2]: 99 nM
